Test results: PMC2858704
Construct, isoform or probe ends are uncertain for at least one entry. The comparison behind a weaker result is the experiment's own reference, which may not be listed here. Tags and fusion partners may be left off the protein sequences shown.

Target: T1, PefR (Gbs1402) (Streptococcus agalactiae NEM316) (UniProt Q8E4J9)
T1 sequence (looked up): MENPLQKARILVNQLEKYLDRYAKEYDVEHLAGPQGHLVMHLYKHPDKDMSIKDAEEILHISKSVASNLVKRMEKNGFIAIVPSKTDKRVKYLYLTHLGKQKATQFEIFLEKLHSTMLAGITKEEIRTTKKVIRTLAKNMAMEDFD
Experiment: EMSA
Settings: 30 pmol PefR, 2 pmol DNA, EMSA: 5% glycerol, 20 mM Tris-HCl pH 8, 50 mM KCl, 0.2 mM MgCl2, 1 mM EDTA, 0.2 mM DTT, 0.3 uM BSA, 15 ul, 37 C 20 min, 8% PAGE in 1x TBE, ethidium bromide stain, recombinant protein, residues 1-146, probe letters rebuilt from the primers and the genome

Sequence	binding result (PPIX, 240 pmol or 120 pmol (panel sides))	binding result (heme, increasing ratios)	binding result (PPIX, 120 pmol or 240 pmol (panel sides))
GCGTAGAAGTCATTAAATGGAGAACGCTTTATTAGGAAAAATAGTGGGGAGATATTTTAGAAAAAGGAAATAATGATGTTTTGAAAAAAATAGTTTCTATGAGAATCTTTTTCTTGACAATAAAATTTAGCTATTATAAAATAGTTCTCACGATAACTAAAATAATGATTTTTTCAGAAAATAATATTATTTATTGATTAAAAAATCAAAAAATAACCTTATAAGACCTATTTGTTATTCTTAAAAGATATTAGTTAAAATCAGAAATAGAGATTGGAGATA (double strand) [pefAB promoter fragment (281 bp)]	binds more weakly	binds more weakly	
ATTTGTATTTTACTATCATTTACATTAAAAATCAATATAAATTTATAATTAAAAATATAAAAAGCGAACATATATTTTTAATATTAAAAAGTAAGCGAAATCATTTTTTATTTGACGAATGATAGGTTTTTTTTAGAAATATTAATGTAAAAATAGTTCTCACGGTAACTTTTAATTGACAATTAATAAAGGTTGTTTTAAAATAGTTCTCACGATAACTATTAAAGGAGTATTATTATGGAGAATC (double strand) [pefRCD promoter fragment (248 bp)]		binds more weakly	binds more weakly
